The exact form of at least one protein or probe is not confirmed. At least one verdict rests on a figure or table, not on a statement of the authors.
Legend:
[1] = molecular target: CoV-2 N (nucleocapsid) (SARS-CoV-2) (UniProt P0DTC9); assay: fluorescence anisotropy; details: single strands preferred, FP: 25 mM Tris-HCl pH 7.6, 50 mM NaCl, no Mg2+, 5 nM labelled nucleic acid, 5 min, temperature not stated, Kd from Hill fits (values not in the text), recombinant protein, residues 1-419, protein details: His6, label: 3'-6-FAM
[2] = molecular target: CoV-2 Nsp13 helicase (SARS-CoV-2) (UniProt P0DTD1); assay: fluorescence anisotropy; details: single strands preferred, recombinant protein, protein details: N-terminal SUMO tag removed with SUMO protease, label: 3'-6-FAM

| Sequence | binding result ([1]; single-stranded DNA) | binding result ([2]; single-stranded DNA) | binding result ([1]; RNA over DNA) | binding result ([2]; RNA over DNA) |
| --- | --- | --- | --- | --- |
| CGATGTTTTATTTACATTGTA [D-S21] | binds | binds |  |  |
| UACAAUGUAAAUAAAACAUCG [R-S21] |  |  | binds | binds |
